Source: patent US20250051300A1, “GRAM-NEGATIVE SPECIFIC ANTIBIOTICS SPARING EFFECT ON GUT MICROBIOME” (THE BOARD OF TRUSTEES OF THE UNIVERSITY OF ILLINOIS, priority 2021, published 2025)

Test system: E. coli BW25113
Assay: Accumulation assay (whole-cell, LC-MS/MS)
Assay type: cell-based, Escherichia coli
Conditions: E. coli BW25113, 50 μM compound, 10 min

Compound	whole-cell accumulation in E. coli
Cc1cc(-c2nc(C(C)(C)C)[nH]c2-c2ccc3c(c2)OCCO3)ccn1 [Compound 1, 4-(2-(tert-butyl)-5-(2,3-dihydrobenzo[b][1,4]dioxin-6-yl)-1H-imidazol-4-yl)-2-methylpyridine]	accumulate very poorly
Fc1ccc(COc2cccc(-c3n[nH]cc3-c3ccncc3)c2)cc1 [Compound 2, 4-(3-(3-((4-fluorobenzyl)oxy)phenyl)-1H-pyrazol-4-yl)pyridine]	accumulate very poorly
Cc1cc(-c2c[nH]nc2-c2cccc(OCc3cccc(C#N)c3)c2)cc(C)n1 [Compound 12, 3-((3-(4-(2,6-dimethylpyridin-4-yl)-1H-pyrazol-3-yl)phenoxy)methyl)benzonitrile]	below the limit of detection
